System: B/Hong Kong/1972 NA

In the case of `CC(=O)NC1C(NC(=N)N)C(F)C(Oc2c(F)cc3c(C)cc(=O)oc3c2F)(C(=O)O)OC1[C@H](O)[C@H](O)CO` (stereo partly drawn) [compound 3, 5-Acetamido-4-guanidine-3-fluoro-3,4,5-trideoxy-2α-(4-methyl-6,8-difluoromethylumbelliferyl)-D-glycero-D-galactononulopyranosylnoic acid], the “ki/Ki (second-order rate constant)” value (type B virus, concentrations well below Ki) is reported as 300000 M⁻¹ s⁻¹ and the “ki/Ki of type B relative to N9” value (type B vs N9) is reported as “about 110 fold”.

Source: patent publication US11639348B2, “Compositions and methods for neuraminidase detection and quantification” (priority 2018, dated 2023)
